From ChEMBL document CHEMBL4622924
Calls of active or inactive are those of the source. No cut-off for these calls is given here.

What was measured:
Homo sapiens = species: Homo sapiens; experiment: Selectivity ratio of IC50 for antagonist activity at human alpha7 nAChR expressed in Xenopus laevis oocytes to IC50 for antagonist activity at human alpha9alpha10 nAChR expressed in Xenopus laevis oocytes
Mus musculus = experiment: Antinociceptive activity in CBA/CaJ mouse model of oxaliplatin-induced neuropathic pain assessed as increase in licking latency at 80 ug/kg, sc administered daily for 4 weeks with 2 days interval per week starting from wednesday and measured on wednesday 24 hrs post-last dose by cold plate test

C[C@@H](O)[C@@H]1NC(=O)[C@@H]2CSSC[C@@H]3NC(=O)[C@H](CCC(N)=O)NC(=O)[C@H](Cc4ccc(O)c(I)c4)NC(=O)[C@H](CCCNC(=N)N)NC(=O)[C@H](CSSC[C@H](NC(=O)CNC(=O)[C@@H](N)CCC(=O)NCCCC[C@H](C(=O)O)NC(=O)[C@H](Cc4ccc(O)cc4)NC3=O)C(=O)N2)NC(=O)[C@H](CCCNC(=N)N)NC(=O)[C@@H]2CCCN2C(=O)[C@H](CC(=O)O)NC1=O
Ratio IC50 (Homo sapiens): 150
Activity (Mus musculus): Active
